Measured values published in publication PMC8003391, “QSAR-Based Virtual Screening of Natural Products Database for Identification of Potent Antimalarial Hits” (Biomolecules, 2021).
Where “and” joins values, the source holds several entries; their conditions need not be identical. Identical values can stand only once.

test system: HepG2 cells; assay: Cytotoxicity, MTT reduction assay; format: cell-based, human; conditions: CC50 (HepG2)/EC50 (3D7)
Method: Cytotoxicity of selected compounds was evaluated using the MTT reduction assay (3-[4,5-dimethyl-thiazol-2-yl]-2,5-diphenyltetrazolium chloride). Human hepatoma (HepG2) cells were cultured in Dulbecco’s Modified Eagle Medium supplemented with gentamycin (40 mg/L) and 10% heat-inactivated fetal bovine serum at 37 °C and 5% CO2. Cells were seeded in 96-well plates (NEST Biotechnology Co., Ltd., Wuxi, Jiangsu, China) at 10^5 cells per well and incubated in the presence of a serial dilution of the drugs starting at 100 µM. After 72 h of incubation, MTT was added to the wells. The optical density was measured at 570 nm (CLARIOStar, Labtech BMG Inc, Durham, NC, USA) and cell viability was expressed as a percentage relative to the untreated control. CC50 values were calculated by plotting a log dose vs. viability curve in GraphPad Prism 6 (GraphPad, La Jolla, CA, USA). The selectivity index (SI) of the compounds was determined by the expression:SI = (HepG2 CC50)/(Pf EC50), where HepG2 CC50 corresponds to the cytotoxic concentration of compounds in HepG2 cells and Pf EC50 relates to the 50% inhibitory concentration on P. falciparum 3D7 strain.

| Compound | In vitro Therapeutic Index (SI) |
| --- | --- |
| COc1cc(C2NCCc3cc(OC)c(OC)cc32)ccc1O (centres unmarked) [LDT-601] | 3.30 |
| CCOC(=O)c1ccc2[nH]cc(C(=O)OCC)c(=O)c2c1 [LDT-588] | > 10 and 17.46 |
| COc1ccc(C2CC(=O)NC3=C2C(=O)C2(Oc4c(Cl)c(OC)cc(OC)c4C2=O)C(C)C3)cc1O (centres unmarked) [LDT-614] | 4.48 |
| Cn1c(=O)[nH]c2nnc(-c3ccc(Cl)cc3)nc2c1=O [LDT-592] | 1.87 |
| COc1ccc(C2c3[nH]c4ccccc4c3C[C@H]3C(=O)N(C4CC4)CC(=O)N23)cc1OC (some centres unmarked) [LDT-599] | 5.70 |
